According to US20230381142A1, “ANTILEISHMANIAL COMPOUNDS, COMPOSITIONS AND USE THEREOF” (TRUSTEES OF BOSTON UNIVERSITY, priority 2022, published 2023):

tested on: L. donovani intracellular amastigotes infecting THP-1 macrophages; experiment: GSK intramacrophage L. donovani assay (LD AMMAC, inMac; Assay Conditions C); format: cell-based, Leishmania donovani; conditions: (LD MAC EC50)/(LD AMMAC EC50)
Procedure, shortened: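 L. donovani amastigotes within THP-1 macrophages; EC50 based on average intracellular amastigotes per infected cell (AMMAC). Infected-cell percentage (INFCELL) and host-cell number (MAC) also read, the latter as toxicity output.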

Row | SMILES | SI MAC
1 | CC(C)Cc1n[nH]c2c1C(c1ccc(F)cc1)N(CC1CCN(C)C1)C2=O (stereo not drawn) [Compound 40] | >1.0
2 | COc1ccc(N2C(=O)c3[nH]nc(CC(C)C)c3C2c2ccc(Cl)cc2)cc1 (stereo not drawn) [Compound 47] | 4.0
3 | COc1ccc(N2C(=O)c3[nH]nc(CCC(C)C)c3C2c2ccc(F)cc2)cc1 (stereo not drawn) [Compound 9] | 12.6
4 | COc1ccc(N2C(=O)c3[nH]nc(CC(C)C)c3C2c2cccs2)cc1 (stereo not drawn) [Compound S2] | >6.3
5 | COc1ccc(N2C(=O)c3[nH]nc(CC(C)C)c3C2c2ccc(F)cn2)cc1 (stereo not drawn) [Compound S10] | >5.0
6 | COc1ccc(N2C(=O)c3[nH]nc(CC(C)C)c3C2c2ccnnc2)cc1 (stereo not drawn) [Compound S9] | 1.0
7 | COc1ccc(N2C(=O)c3[nH]nc(CC(C)C)c3C2c2cccc(C(F)(F)F)c2)cc1 (stereo not drawn) [Compound 62] | 2.5
8 | CC(C)Cc1n[nH]c2c1C(c1ccc(F)cc1)N(c1ccc(C(C)(C)C)cc1)C2=O (stereo not drawn) [Compound 25] | >5.0
9 | COc1ccc(N2C(=O)c3[nH]nc(CC(C)C)c3C2c2ccc(F)c(C)n2)cc1 (stereo not drawn) [Compound S13] | >4.0
10 | COc1ccc(N2C(=O)c3[nH]nc(CC(C)C)c3C2c2cccc(F)c2)cc1 (stereo not drawn) [Compound 58] | 2.5
11 | COc1ccc(N2C(=O)c3[nH]nc(CCc4ccccc4)c3C2c2ccc(F)cc2)cc1 (stereo not drawn) [Compound 15] | 4.0
12 | C=CCCc1n[nH]c2c1C(c1ccc(F)cc1)N(c1ccc(OC)cc1)C2=O (stereo not drawn) [Compound 12] | 2.0
13 | COc1ccc(N2C(=O)c3[nH]nc(CC(C)C)c3C2c2ccccc2Br)cc1 (stereo not drawn) [Compound 56] | 50.2
14 | COc1ccc(N2C(=O)c3[nH]nc(CC(C)C)c3C2c2ccc(F)cc2)c(OC)c1 (stereo not drawn) [Compound 43] | 1.6
15 | COc1ccccc1N1C(=O)c2[nH]nc(CC(C)C)c2C1c1ccc(F)cc1 (stereo not drawn) [Compound 29] | >2.5
16 | COCCN1C(=O)c2[nH]nc(CC(C)C)c2C1c1ccc(F)cc1 (stereo not drawn) [Compound 41] | >1.0
17 | COc1ccc(N2C(=O)c3[nH]nc(CC(C)C)c3C2c2ccc(C(=O)O)cc2)cc1 (stereo not drawn) [Compound 50] | 1.0
18 | COc1ccc(N2C(=O)c3[nH]nc(CC(C)C)c3C2c2ccc(F)cc2C)cc1 (stereo not drawn) [Compound 64, 4-(4-fluoro-2-methylphenyl)-3-isobutyl-5-(4-methoxyphenyl)-4,5-dihydropyrrolo[3,4-c]pyrazol-6(1H)-one] | 50.2
19 | COc1ccc(N2C(=O)c3[nH]nc(CC(C)C)c3C2c2ccc(OC)nc2)cc1 (stereo not drawn) [Compound S12] | 1.0
20 | CC(C)Cc1n[nH]c2c1C(c1ccc(F)cc1)N(c1ccc(O)cc1)C2=O (stereo not drawn) [Compound 18] | 8.0

same assay, conditions: THP-1 CC50 / L. donovani EC50 (THP-1)

Row | SMILES | SI Host cell potency/L. donovani potency
21 | COc1ccc(N2C(=O)c3[nH]nc(CC(C)C)c3[C@H]2c2cccc(C(F)(F)F)c2)cn1 [CMLD011076] | 1.6
22 | COc1ccccc1N1C(=O)c2[nH]nc(CC(C)C)c2C1C1CCCCC1 (stereo not drawn) [CMLD011045] | 2.5

same assay, conditions: rows whose L. donovani EC50 is in THP-1 cells (c)

Row | SMILES | SI Host cell potency/L. donovani potency
23 | COc1ccc(N2C(=O)c3[nH]nc(CC(C)C)c3C2c2ccc(F)c(C(F)(F)F)c2)cc1 (stereo not drawn) [BUCMD00802] | 5.0
24 | CC(C)Cc1n[nH]c2c1C(c1ccsc1)N(c1ccc(C(C)(C)C)cc1)C2=O (stereo not drawn) [CMLD011135] | >12.9
25 | COc1ccc(N2C(=O)c3[nH]nc(CC(C)C)c3C2c2ccncc2Cl)cc1 (stereo not drawn) [CMLD011496] | 2.0
26 | COc1ccc(N2C(=O)c3[nH]nc(CC(C)C)c3C2c2ccc(F)c(C)n2)cc1 (stereo not drawn) [CMLD011120] | >4.0
27 | COc1ccc(N2C(=O)c3[nH]nc(CC(C)C)c3C2c2ccccc2Br)c(OC)c1 (stereo not drawn) [CMLD011109] | 2.5
28 | COc1ccc(N2C(=O)c3[nH]nc(CCC=C(C)C)c3C2c2ccc(F)cc2)cc1 (stereo not drawn) [CMLD010981] | 3.2
29 | CC(C)Cc1n[nH]c2c1C(c1cccc(C(F)(F)F)c1)N(CCN1CCCC1)C2=O (stereo not drawn) [CMLD011126] | 2.0
30 | COc1ccc(N2C(=O)c3[nH]nc(CC(C)C)c3C2c2c(Cl)cccc2Cl)cc1F (stereo not drawn) [CMLD011568] | 3.2
31 | COc1ccccc1N1C(=O)c2[nH]nc(CC(C)C)c2C1c1cccc(Cl)c1 (stereo not drawn) [CMLD011134] | 2.0
32 | CC(C)Cc1n[nH]c2c1C(c1ccc(F)cc1)N(C1CCOCC1)C2=O (stereo not drawn) [CMLD011030] | >1.6
33 | COc1ccc(N2C(=O)c3[nH]nc(CC(C)C)c3C2c2ccccc2)cc1 (stereo not drawn) [CMLD007427] | 9.9
34 | COc1ccc(N2C(=O)c3[nH]nc(CC(C)C)c3C2C2CCCC2)cc1 (stereo not drawn) [CMLD010978] | 1.6
35 | COCCN1C(=O)c2[nH]nc(CC(C)C)c2C1c1ccc(F)cc1 (stereo not drawn) [CMLD011117] | >1.0
36 | COc1ccc(N2C(=O)c3[nH]nc(CC(C)C)c3C2c2ccccc2Cl)cc1 (stereo not drawn) [CMLD010893] | 15.3
37 | CC(C)Cc1n[nH]c2c1C(c1ccc(F)cc1)N(CCN1CCCC1)C2=O (stereo not drawn) [CMLD011072] | >3.2
38 | CC(C)Cc1n[nH]c2c1C(c1ccc(F)cc1)N(c1ccc(N(C)C)cc1)C2=O (stereo not drawn) [CMLD011039] | 39.8
39 | COc1ccc(N2C(=O)c3[nH]nc(CC(C)C)c3C2c2ccc(OC)nc2)cc1 (stereo not drawn) [CMLD011027] | 1.0
40 | CC(C)Cc1n[nH]c2c1C(c1ccc(F)cc1)N(c1ccc3c(c1)OCO3)C2=O (stereo not drawn) [CMLD010901] | 41.8
41 | CC(C)Cc1n[nH]c2c1C(c1ccc(F)cc1)N(c1ccc3c(c1)OCCO3)C2=O (stereo not drawn) [CMLD011101] | 7.9
42 | CC(C)Cc1n[nH]c2c1C(c1ccc(F)cc1)N(c1ccc3ncnn3c1)C2=O (stereo not drawn) [CMLD010888] | >10
43 | COc1ccccc1N1C(=O)c2[nH]nc(CC(C)C)c2C1c1ccc(F)cc1 (stereo not drawn) [CMLD011046] | >2.5
44 | CC(C)Cc1n[nH]c2c1C(c1ccc(F)cc1)N(c1ccccn1)C2=O (stereo not drawn) [CMLD011095] | >2.5

Row | SMILES | SI Host cell potency/L. donovani potency
45 | CC(C)Cc1n[nH]c2c1C(c1cccc(C(F)(F)F)c1)N(c1ccc(N(C)C)cc1)C2=O (stereo not drawn) [CMLD010925] | 2.5
46 | Cc1cc(F)ccc1C1c2c(CC(C)C)n[nH]c2C(=O)N1c1ccc(-n2ccnc2)cc1 (stereo not drawn) [CMLD010926] | 20.0
47 | COc1ccc(N2C(=O)c3[nH]nc(CC(C)C)c3C2c2ccc(F)cc2)cc1F (stereo not drawn) [CMLD010884] | 19.3
48 | CC(C)Cc1n[nH]c2c1C(c1cccc(C(F)(F)F)c1)N(c1ccc(Br)cc1)C2=O (stereo not drawn) [CMLD011081] | 1.0
49 | COc1ccc(N2C(=O)c3[nH]nc(CC(C)C)c3C2c2cncs2)cc1 (stereo not drawn) [CMLD010991] | >3.1
50 | COc1ccc(N2C(=O)c3[nH]nc(CC(C)C)c3C2c2ccncn2)cc1 (stereo not drawn) [CMLD010887] | 1.0
51 | COc1ccc(OC)c(N2C(=O)c3[nH]nc(CC(C)C)c3C2c2ccc(F)cc2)c1 (stereo not drawn) [CMLD011040] | 2.0
52 | COc1ccc(N2C(=O)c3[nH]nc(CC(C)C)c3C2c2cccnc2Cl)cc1 (stereo not drawn) [CMLD011559] | <0.2
53 | CC(C)Cc1n[nH]c2c1C(c1ccc(F)cc1)N(c1ccc(C#N)cc1)C2=O (stereo not drawn) [BUCMD00807] | 2.0
54 | COc1ccc(N2C(=O)c3[nH]nc(-c4ccc(CC(C)C)cc4)c3C2c2ccc(F)cc2)cc1 (stereo not drawn) [CMLD010979] | 2.0
55 | COc1ccc(N2C(=O)c3[nH]nc(CC(C)C)c3C2c2ccc(C(F)(F)F)cc2)cc1 (stereo not drawn) [CMLD011121] | 2.0
56 | CC(C)Cc1n[nH]c2c1C(c1ccc(F)cc1)N(c1cccnc1)C2=O (stereo not drawn) [CMLD011098] | >2.0
57 | CC(C)Cc1n[nH]c2c1C(c1ccc(F)cc1)N(c1ccc(S(=O)(=O)N3CCCC3)cc1)C2=O (stereo not drawn) [CMLD011558] | <1
58 | COc1ccc(N2C(=O)c3[nH]nc(CC(C)C)c3C2c2ccc(F)cc2OC)cc1F (stereo not drawn) [CMLD011573] | 15.8
59 | COc1ccc(N2C(=O)c3[nH]nc(CC(C)C)c3C2c2cccc(C(F)(F)F)c2)c(OC)c1 (stereo not drawn) [CMLD011115] | 1.6
60 | CC(C)Cc1n[nH]c2c1[C@@H](c1ccc(F)cc1)N([C@H]1CC[C@H](N(C)C)CC1)C2=O [CMLD011124] | >2.0
61 | COc1ccc(N2C(=O)c3[nH]nc(CC(C)C)c3[C@@H]2c2ccc(F)cc2)cc1 [CMLD011128] | >25
62 | COc1cccc(N2C(=O)c3[nH]nc(CC(C)C)c3C2c2cccc(Cl)c2)c1 (stereo not drawn) [CMLD011133] | 5.0
63 | CC(C)Cc1n[nH]c2c1C(c1ccc(F)cc1)N(Cc1ccc(C(F)(F)F)cn1)C2=O (stereo not drawn) [CMLD010848] | >1.25
64 | COC(=O)c1ccc(N2C(=O)c3[nH]nc(CC(C)C)c3C2C2CCCCC2)cc1 (stereo not drawn) [CMLD011094] | >1.25
65 | COc1cccc(N2C(=O)c3[nH]nc(CC(C)C)c3C2c2ccc(F)cc2)c1 (stereo not drawn) [CMLD010895] | 2.5
66 | CC(C)Cc1n[nH]c2c1C(c1c(Cl)cccc1Cl)N(c1ccc3c(c1)OCO3)C2=O (stereo not drawn) [CMLD011547] | 7.9
